The target in data set [1] is T1, His6-MgrA (Staphylococcus aureus NCTC8325) (UniProt Q2G0B1).
T1 sequence (looked up): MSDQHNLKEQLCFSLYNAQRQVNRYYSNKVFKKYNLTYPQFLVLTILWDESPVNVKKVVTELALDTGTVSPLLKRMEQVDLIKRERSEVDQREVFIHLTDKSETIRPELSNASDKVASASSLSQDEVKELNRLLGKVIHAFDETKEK
As to the kind of experiment: competition with a labelled probe. The following applies: 100-fold excess vs Ppsmα-biotin, competed; EMSA: 50 mM Tris-HCl pH 8.0, 200 mM NaCl, 25°C, 1 h; recombinant protein; residues 1-147; protein details: His6 (pET28a(+), NdeI/XhoI); probe letters rebuilt from the primers and the genome. Background: In EMSA bound probe runs differently from free probe, usually more slowly.

Data set [2] has as its target T1, His6-MgrA (Staphylococcus aureus NCTC8325). In words: EMSA. The following applies: 10 fmol probe; EMSA: 50 mM Tris-HCl pH 8.0, 200 mM NaCl, 25°C, 1 h; recombinant protein; residues 1-147; protein details: His6 (pET28a(+), NdeI/XhoI); label: 5'-biotin (reverse primer); probe letters rebuilt from the primers and the genome.
For data set [3] the target is unchanged. In words: DNase I footprinting. The following applies: 2 and 4 μg MgrA/100 μl, 5 mM MgCl2, 1 mM CaCl2, -40 to -6 protected; DNase I footprinting: 20 mM Tris-HCl pH 8.0, 100 mM NaCl, 5 mM MgCl2, 1 mM CaCl2, 2 mM DTT, 25°C, 1 h (DNase I 1 min at 37°C); recombinant protein; residues 1-147; protein details: His6 (pET28a(+), NdeI/XhoI); label: 5'-6-FAM (forward primer); probe letters rebuilt from the primers and the genome.

Tags and fusion partners may be left off the protein sequences shown.

For the sequence “CCGGAATTCTCTGTTCAATTCATCTTCATAAATATGCTTTGCCTAGACGAGACCTAACGTGTTATTCGTTTTAAACTTATAACATAAAATATAATTAAATTTCTGCTTCATGTCAAATTCATGAGCTTAACCTCTATTAAACCAATGATTGTAAAGATTTTGTAAATGCACCTGTACAGTTAGGCAGTATTTCCCGTCCTTTTAAAATAAAAAATTCGCAGTTATGATCATAACAATTCAAGTTAGGAAAAAAATCAATTACGCACAAGATAACTATGTACAATGAAGTTAACTCATAAGCAAAGGAGGTAATCTTAATGGGTATCATCGCTGGCGGGGATCCGCG (double strand) [unlabeled psmα promoter fragment (Ppsmα), 336 bp]”, the binding result in data set [1] was “binds”.
Regarding “CCGGAATTCTCTGTTCAATTCATCTTCATAAATATGCTTTGCCTAGACGAGACCTAACGTGTTATTCGTTTTAAACTTATAACATAAAATATAATTAAATTTCTGCTTCATGTCAAATTCATGAGCTTAACCTCTATTAAACCAATGATTGTAAAGATTTTGTAAATGCACCTGTACAGTTAGGCAGTATTTCCCGTCCTTTTAAAATAAAAAATTCGCAGTTATGATCATAACAATTCAAGTTAGGAAAAAAATCAATTACGCACAAGATAACTATGTACAATGAAGTTAACTCATAAGCAAAGGAGGTAATCTTAATGGGTATCATCGCTGGCGGGGATCCGCG (double strand) [psmα promoter fragment (Ppsmα-biotin), 336 bp]”, the binding result in data set [2] is given as “binds”.
Consider “TCTGTTCAATTCATCTTCATAAATATGCTTTGCCTAGACGAGACCTAACGTGTTATTCGTTTTAAACTTATAACATAAAATATAATTAAATTTCTGCTTCATGTCAAATTCATGAGCTTAACCTCTATTAAACCAATGATTGTAAAGATTTTGTAAATGCACCTGTACAGTTAGGCAGTATTTCCCGTCCTTTTAAAATAAAAAATTCGCAGTTATGATCATAACAATTCAAGTTAGGAAAAAAATCAATTACGCACAAGATAACTATGTACAATGAAGTTAACTCATAAGCAAAGGAGGTAATCTTAATGGGTATCATCGCTGGCGGGGATCCGCG (double strand) [psmα promoter fragment 6-FAM, 336 bp]”, for which, in data set [3], the binding result is given as “binds”.

Source of the values: publication PMC6070752.
